These results are taken from publication PMC11335189, “Revealing molecular determinants governing mambalgin-3 pharmacology at acid-sensing ion channel 1 variants” (Cellular and Molecular Life Sciences: CMLS, 2024).

Positions count from the first letter of the chain named.

Experiment [1] deals with T1, rat acid-sensing ion channel 1b (rat).
T1 sequence (P55926 whole entry, looked up): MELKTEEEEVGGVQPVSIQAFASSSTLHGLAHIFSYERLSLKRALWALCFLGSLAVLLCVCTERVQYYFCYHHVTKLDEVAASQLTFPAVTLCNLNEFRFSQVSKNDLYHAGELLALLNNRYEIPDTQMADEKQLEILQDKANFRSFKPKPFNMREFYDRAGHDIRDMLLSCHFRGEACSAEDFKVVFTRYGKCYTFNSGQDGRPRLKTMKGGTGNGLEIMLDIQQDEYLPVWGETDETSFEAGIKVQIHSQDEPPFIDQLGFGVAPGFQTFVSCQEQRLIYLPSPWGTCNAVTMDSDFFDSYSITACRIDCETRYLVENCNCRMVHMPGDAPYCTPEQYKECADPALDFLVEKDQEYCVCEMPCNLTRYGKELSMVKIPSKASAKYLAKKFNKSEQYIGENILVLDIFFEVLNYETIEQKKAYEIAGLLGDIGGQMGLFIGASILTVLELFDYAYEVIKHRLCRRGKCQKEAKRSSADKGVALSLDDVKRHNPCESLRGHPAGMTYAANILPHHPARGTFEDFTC

Experiment [2] addresses T2, rASIC1a S83T/Q84E/R175C/E177G (rat) (UniProt P55926).
T2 sequence: T1 sequence (P55926 whole entry, looked up) with S83T, Q84E, R175C, E177G

Turning to Ma-3 M16A (peptide), the results for the I/I (control) of pH 6-evoked currents with 300 nM peptide (I/I (control)) in experiment [1] and in experiment [2] were 0.8 and 0.56, respectively.
